A mixed list of measured activities; the numbers were collected in NIAID ChemDB.

Common to all: tests on isolated targets; agent: Hepatitis C virus

ICn: concentration for n% inhibition. Two numbers with a dash give a range or band. An empty or dashed field is not shown. Lines come from different laboratories, so protocols vary. Percent inhibition refers to the dose given; in toxicity tests it is the harm to the cells.

SMILES | method | setting | endpoint | target | dose | result
NN1C(=O)/C(=C/c2ccc([N+](=O)[O-])cc2)SC1=S |  |  | IC50 | NS5B polymerase |  | 1000 µM
CC(C)COC(=O)N[C@H](C(=O)N(C)[C@@H](CC1CC1)C(=O)NC(CC1CC1)C(=O)C(=O)NCC(=O)N[C@H](C(=O)N(C)C)c1ccccc1)C1CCCCC1 |  |  | Ki | NS3 serine protease |  | 0.06 µM
CCC[C@H](NC(=O)[C@H](CC1CCCCC1)NC(=O)[C@@H](NC(=O)[C@@H](NC(=O)CCC(=O)O)C1CCCCC1)C(C)CC)C(=O)O |  |  | Ki | NS3 protease |  | 28 µM
CCCOc1ccc(CCC2(C3CCCC3)CC(=O)CC(=O)O2)cc1F |  |  | IC50 | Nonstructural protein 5B |  | 1–10 µM
CSCC[C@H](NC(=O)[C@H](CCC(=O)O)NC(=O)[C@H](CC(=O)O)NC(C)=O)C(=O)N[C@@H](CCC(=O)O)C(=O)N[C@@H](CC1CCCCC1)C(=O)N[C@@H](CS)C(=O)O |  |  | Ki | NS3/NS4A serine protease |  | 0.18 µM
C=CCN(C(=O)Cc1cccc(C)c1)c1cc(-c2ccccc2)sc1C(=O)O |  |  | IC50 | NS3 ATPase |  | 5–20 µM
CC(=O)N[C@H](C(=O)N[C@H](C(=O)N1C[C@H](OCc2cccc3ccccc23)C[C@H]1C(=O)NC1(C(=O)O)CC1)C(C)C)C1CCCCC1 |  |  | IC50 | Nonstructural protein 3 protease |  | 3.5 µM
O=C(CCCCC(=O)Nc1nccs1)Nc1nccs1 |  |  | IC50 | Nonstructural protein 3 NTPase/helicase |  | >25 µg/mL
C=C[C@H]1CC1(NC(=O)[C@@H]1C[C@@H](Oc2nc(-c3ccccc3)nc3ccccc23)CN1C(=O)[C@@H](Nc1ccc(C(=O)OC(C)(C)C)cc1)C(C)(C)C)C(=O)O |  |  | IC50 | HCV NS3/NS4A protease |  | 0.19 µM
O=C1OC(CCc2ccc(OCc3ccccc3)cc2)(C2CCCC2)CC(O)=C1Sc1cccc2ccccc12 |  |  | IC50 | Nonstructural protein 5B |  | 1–10 µM
CC(=O)N[C@@H](CC(=O)O)C(=O)N[C@H](CC(C(=O)O)C(=O)O)C(=O)N[C@H](C(=O)N[C@@H](CCC(=O)O)C(=O)N[C@@H](CC(C)C)C(=O)N[C@@H](CS)C(=O)C(=O)O)C(c1ccccc1)c1ccccc1 |  |  | Ki | NS3/NS4A serine protease |  | 0.0001 µM
O=C(NO)c1sc2ccccc2c1S(=O)(=O)c1ccccc1 | fluorescence | genotype 1b | IC50 | Nonstructural protein 3/4A |  | 126 µM
Cc1ccc2nc(-c3ccc(N)cc3)sc2c1 |  |  | IC50 | Nonstructural protein 3 NTPase/helicase |  | >25 µg/mL
CSc1nc(Nc2ccc(N3CCOCC3)cc2)cc(N2CCN(C(=O)OC(C)C)CC2)n1 |  |  | inhibition | NS5B polymerase | 0.1 µg/mL | 55%
Cc1cc(S(=O)(=O)Nc2cc(-c3ccsc3)sc2C(=O)O)c(C)cc1Cl |  |  | IC50 | NS3 ATPase |  | <5 µM
C=C[C@H]1CC1(NC(=O)[C@@H]1C[C@@H](Oc2cccc3cnccc23)CN1C(=O)[C@@H](NC(=O)OC(C)(C)C)C1CCCCC1)C(=O)O |  |  | IC50 | HCV NS3/NS4A protease |  | 2.5 µM
C=CC1CC1(NC(=O)C1CC(Oc2cc(-c3ccccc3)nc3cc(OC)ccc23)CN1C(=O)[C@@H](NC(=O)OC(C)(C)C)C(C)C)C(=O)NS(=O)(=O)c1ccccc1 |  |  | Ki | NS3 protease |  | 0.00076 µM
O=C(O)c1ccc2c(c1)nc(-c1ccc(OCc3cc(C(=O)N4CCC(O)CC4)ccc3-c3ccc(Cl)cc3)cc1F)n2C1CCCCC1 |  |  | IC50 | NS5B polymerase |  | 0.28 µM
CC1CCC(C(=O)N(c2cc(-c3ccccc3)sc2C(=O)O)C2COCOC2)CC1 |  |  | IC50 | NS3 ATPase |  | <5 µM
OC[C@H]1O[C@@H](n2cnc3cc(Br)c(Br)cc32)[C@H](O)[C@@H]1O |  |  | IC50 | Nonstructural protein 3 NTPase/helicase |  | 320 µM
CCSc1ccc(CCC2(C3CCCC3)CC(=O)CC(=O)O2)cc1 |  |  | IC50 | Nonstructural protein 5B |  | 1–10 µM
CC(=O)Oc1cc(C)ccc1C(=O)N(c1cc(-c2ccccc2)sc1C(=O)O)C(C)C |  |  | IC50 | NS3 ATPase |  | 5–20 µM
Cc1ccc(C(=O)N2CCOCC2)c(Nc2ccc3cn[nH]c3c2)n1 |  |  | inhibition | NS5B polymerase | 0.1 µg/mL | 54%
CC(=O)N[C@@H](CC(=O)O)C(=O)N[C@H](CC(=O)O)C(=O)N[C@H](C(=O)N[C@@H](CCC(=O)O)C(=O)N[C@@H](CC1CCCCC1)C(=O)N[C@@H](CS)C(=O)C(=O)O)C(c1ccccc1)c1ccccc1 |  |  | Ki | NS3/NS4A serine protease |  | 12.7 µM
CC(C)[C@H](NC(=O)OC(C)(C)C)C(=O)N1C[C@H](Oc2cc(-c3ccccc3)nc3ccc([N+](=O)[O-])cc23)C[C@H]1C(=O)NC1(C(=O)O)CC1 |  |  | IC50 | HCV NS3/NS4A protease |  | 8.9 µM
CCC[C@H](NC(=O)[C@H](CC1CCCCC1)NC(=O)[C@@H](NC(=O)[C@@H](NC(=O)CCC(=O)O)C1CCCCC1)C(C)CC)C(=O)NS(=O)(=O)C(C)C |  |  | Ki | NS3 protease |  | 9.7 µM
CC(C)C(=O)N(Cc1ccccc1Cl)c1cc(-c2ccccc2)sc1C(=O)O |  |  | IC50 | NS3 ATPase |  | 5–20 µM
Nc1ccc(-c2nc3ccccc3s2)cc1 |  |  | IC50 | Nonstructural protein 3 NTPase/helicase |  | >25 µg/mL
O=C1CC(=O)OC(CCc2ccc3c(c2)OCCO3)(C2CCCC2)C1 |  |  | IC50 | Nonstructural protein 5B |  | 1–10 µM
CC(=O)N[C@@H](CC(=O)O)C(=O)N[C@H](CC(C(=O)O)C(=O)O)C(=O)N[C@H](C(=O)N[C@@H](CCC(=O)O)C(=O)N[C@@H](Cc1ccc(O)cc1)C(=O)N[C@@H](CS)C(=O)C(=O)O)C(c1ccccc1)c1ccccc1 |  |  | Ki | NS3/NS4A serine protease |  | 0.00003 µM
COc1ccc2c(OC3CC(C(=O)NC4(C(=O)O)CC4)N(C(=O)[C@@H](NC(=O)OC(C)(C)C)C(C)C)C3)cc(-c3ccccc3)nc2c1 |  |  | Ki | NS3 protease |  | 0.32 µM
O=C(NCCCCCCNC(=O)Nc1ccc(-c2nc3ccccc3[nH]2)cc1)Nc1ccc(-c2nc3ccccc3[nH]2)cc1 |  |  | IC50 | Nonstructural protein 3 NTPase/helicase |  | >25 µg/mL
O=C(O)c1ccc2c(c1)nc(-c1ccoc1)n2C1CCCCC1 |  |  | IC50 | NS5B polymerase |  | 1.6 µM
CCC[C@H](NC(=O)[C@H](Cc1ccc2ccccc2c1)NC(=O)[C@H](CCC(=O)O)NC(=O)[C@@H](NC(=O)CCC(=O)O)C1CCCCC1)C(=O)NS(=O)(=O)c1ccccc1 |  |  | Ki | NS3 protease |  | 8.4 µM
CCOC(=O)c1ccc(N[C@H](C(=O)N2C[C@H](OCc3cccc4ccccc34)C[C@H]2C(=O)NC2(C(=O)O)CC2)C2CCCCC2)cc1 |  |  | IC50 | HCV NS3/NS4A protease |  | 42 µM
NCc1cccnc1 |  |  | IC50 | Nonstructural protein 3 NTPase/helicase |  | >25 µg/mL
Clc1c(Cl)c(Cl)c2n[nH]nc2c1Cl |  |  | IC50 | Nonstructural protein 3 NTPase/helicase |  | 380 µM
NCc1ccco1 |  |  | IC50 | Nonstructural protein 3 NTPase/helicase |  | >25 µg/mL
Nc1nc2c(ncn2[C@@H]2O[C@H](CO)[C@@H]3C[C@@]32F)c(=O)[nH]1 | nucleotide incorporation | genotype 1b | IC50 | Nonstructural protein 5B |  | >100 µM
CCC[C@H](NC(=O)C1CC(Oc2cc(-c3ccccc3)nc3cc(OC)ccc23)CN1C(=O)[C@@H](NC(=O)OC(C)(C)C)C(C)C)C(=O)O |  |  | Ki | NS3 protease |  | 0.76 µM
CC(C)c1ccc(CCC2(C3CCCC3)CC(=O)CC(=O)O2)cc1 |  |  | IC50 | Nonstructural protein 5B |  | 1–10 µM
CC(=O)N[C@@H](CC(=O)O)C(=O)N[C@H](CC(C(=O)O)C(=O)O)C(=O)N[C@H](C(=O)N[C@@H](CCC(=O)O)C(=O)N[C@@H](Cc1cccc2ccccc12)C(=O)N[C@@H](CS)C(=O)C(=O)O)C(c1ccccc1)c1ccccc1 |  |  | Ki | NS3/NS4A serine protease |  | 0.0003 µM
CN(C(=O)c1cc(-c2ccccc2)sc1C(=O)O)c1ccc(Cl)cc1Cl |  |  | IC50 | NS3 ATPase |  | 5–20 µM
O=c1[nH]c2ccccc2c(O)c1C1=NS(=O)(=O)c2ccccc2N1 |  |  | IC50 | RNA-dependent RNA polymerase |  | >50 µM
CC(C)(C)OC(=O)N[C@H](C(=O)N1C[C@H](Oc2ccnc3cc(Cl)ccc23)C[C@H]1C(=O)NC1(C(=O)O)CCC1)C(C)(C)C |  |  | IC50 | HCV NS3/NS4A protease |  | 7.9 µM
C=C[C@H]1CC1(NC(=O)[C@@H]1C[C@@H](Oc2cc(-c3ccccc3)nc3cc(OC)ccc23)CN1C(=O)[C@@H](NC(=O)OC(C)(C)C)C(C)C)C(=O)O |  |  | Ki | NS3 protease |  | 0.055 µM
C=Cc1cc(C)ccc1C(=O)N(c1cc(-c2ccccc2)sc1C(=O)O)C(C)C |  |  | IC50 | NS3 ATPase |  | 5–20 µM
Nc1ccc(-c2nc3ncccc3o2)cc1 |  |  | IC50 | Nonstructural protein 3 NTPase/helicase |  | >25 µg/mL
O=C(O)c1sc(-c2ccccc2)cc1NS(=O)(=O)c1c(Cl)cccc1Cl |  |  | IC50 | NS3 ATPase |  | <5 µM
CC(=O)N[C@@H](CC(=O)O)C(=O)N[C@@H](Cc1ccc(O)cc1)C(=O)N[C@H](C(=O)N[C@@H](CCC(=O)O)C(=O)N[C@@H](CC1CCCCC1)C(=O)N[C@@H](CS)C(=O)C(=O)O)C(c1ccccc1)c1ccccc1 |  |  | Ki | NS3/NS4A serine protease |  | 145 µM
O=C(CCCCCCC(=O)Nc1ccc(-c2nc3ccccc3[nH]2)cc1)Nc1ccc(-c2nc3ccccc3[nH]2)cc1 |  |  | IC50 | Nonstructural protein 3 NTPase/helicase |  | <25 µg/mL
CCOc1ccc(CCC2(C3CCCC3)CC(=O)CC(=O)O2)cc1Cl |  |  | IC50 | Nonstructural protein 5B |  | <1 µM

The first 3 rows once more:

SMILES	method	setting	endpoint	target	dose	result
NN1C(=O)/C(=C/c2ccc([N+](=O)[O-])cc2)SC1=S			IC50	NS5B polymerase		1000 µM
CC(C)COC(=O)N[C@H](C(=O)N(C)[C@@H](CC1CC1)C(=O)NC(CC1CC1)C(=O)C(=O)NCC(=O)N[C@H](C(=O)N(C)C)c1ccccc1)C1CCCCC1			Ki	NS3 serine protease		0.06 µM
CCC[C@H](NC(=O)[C@H](CC1CCCCC1)NC(=O)[C@@H](NC(=O)[C@@H](NC(=O)CCC(=O)O)C1CCCCC1)C(C)CC)C(=O)O			Ki	NS3 protease		28 µM